A mixed list of measured activities; the numbers were collected in NIAID ChemDB.

Shared fields: whole-cell or culture tests; agent: Hepatitis B virus; read-out: EC50

An empty or dashed field is not shown. ECn: concentration that inhibits the pathogen or its effect by n%. Neighbouring rows are from separate reports.

Nc1cc(OCCOCP(=O)(O)O)nc(=O)[nH]1 ; method: PCR ; cells: HEPAD79 ; result: >300 µM
Nc1nc(=O)n([C@@H]2C=C[C@H](CO)O2)cc1F ; cells: HepG2.2.15 ; result: <0.1 µM
CCCCCCCCCCCCCC(=O)O[C@@H]1[C@@H](C)[C@@]2(O)[C@@H](C=C(CO)C[C@]3(O)C(=O)C(C)=C[C@@H]23)[C@@H]2C(C)(C)[C@]12OC(C)=O ; cells: HB611 ; result: 100 µM
N#Cc1c(N)nc(N)nc1OCCOCP(=O)(O)O ; method: PCR ; cells: HepAD38 ; result: 0.14 µM
CC(C)=CCC[C@](C)(OC1OC(COC2OCC(O)C(O)C2O)C(O)C(O)C1O)[C@H]1CC[C@]2(C)[C@@H]1[C@H](O)C[C@@H]1[C@@]3(C)CC[C@H](O)C(C)(C)[C@@H]3[C@@H](OC3OC(CO)C(O)C(O)C3OC3OC(CO)C(O)C(O)C3O)C[C@]12C ; conditions: 4 d ; method: PCR ; cells: HepG2.2.15 ; result: 3.206 µM
Nc1ncnc2c1ncn2CCOCP(=O)(O)O ; method: PCR ; cells: HepAD38 ; result: 0.07 µM
CC1=C(O)C(=O)C=C2C1=CC=C1[C@@]2(C)CC[C@@]2(C)[C@@H]3C[C@](C)(C(=O)N4CCCC4)CC[C@]3(C)CC[C@]12C ; method: ELISA / antigen ; cells: HepG2 2.2.15 ; result: 24.1 µM
Nc1ncnc2c1ncn2CCOCCP(=O)(O)O ; cells: HB611 ; result: >400 µM
Nc1nc2c(ncn2CCC(CO)CO)c(=O)[nH]1 ; strain: WILD TYPE ; cells: HepG2 ; result: 11.5 µM
Nc1ncnc2c1ncn2CCOCP(=O)(O)O ; strain: WILD TYPE ; result: 3.9 µM
CC(c1ccc(O)c(O)c1)N1C=NC2C(N)=NC=NC21 ; method: ELISA / antigen ; cells: HepG2.2.15 ; result: 1420 µM
Nc1nc(N)c(C=O)c(OCCOCP(=O)(O)O)n1 ; method: PCR ; cells: HepAD38 ; result: 21 µM
Nc1nc2ncn(CC(CO)OCP(=O)(O)O)c2c(=O)[nH]1 ; cells: HB611 ; result: >400 µM
CC1=C(O)C(=O)C=C2C1=CC=C1[C@@]2(C)CC[C@@]2(C)[C@@H]3C[C@](C)(C(=O)NC(C)C)CC[C@]3(C)CC[C@]12C ; method: ELISA / antigen ; cells: HepG2 2.2.15 ; result: 17.2 µM
C[C@H](Cn1cnc2c(N)ncnc21)OCP(=O)(O)O ; method: PCR ; cells: HEPAD79 ; result: 0.3 µM
Nc1ccn([C@@H]2CS[C@H](CO)O2)c(=O)n1 ; method: ELISA / antigen ; cells: HepG2 2.2.15 ; result: 177.4 µM
O=c1ccn(CCOCP(=O)(O)O)c(=O)[nH]1 ; cells: HB611 ; result: 200 µM
C[C@@H](Cn1cnc2c(N)nc(N)nc21)OCP(=O)(O)O ; method: PCR ; cells: HepAD38 ; result: 7.6 µM
Nc1ncnc2c1ncn2[C@@H]1C[C@@H](N)[C@H](CO)O1 ; cells: HepG2.2.15 ; result: >10 µM
COc1cc(C2Oc3cc(O)cc(O)c3C(=O)C2OC2O[C@H](CO)[C@@H](O)[C@H](O)[C@H]2O)ccc1O ; method: ELISA / antigen ; cells: HepG2.2.15 ; result: 332 µM
Nc1nc(Cl)nc2c1ncn2[C@@H]1C[C@@H](O)[C@H](CO)O1 ; cells: HepG2.2.15 ; result: >10 µM
CC(O)(Cn1cnc2c(N)ncnc21)P(=O)(O)O ; cells: HB611 ; result: 45 µM
Nc1nc(N)c2ncn([C@H]3CO[C@@H](CO)O3)c2n1 ; strain: DUAL ; result: 62 µM
CC[C@H]1OC(O[C@@H]2[C@@H]3[C@](C)(CC[C@H]2C(C)C)[C@H](O)CC[C@]3(C)O)[C@H](O)[C@@H](O)[C@@H]1O ; method: PCR ; cells: HepG2.2.15 ; result: 12.01 µM
Nc1ncnc2c1ncn2CCOCP(=O)(O)O ; strain: Mutation M552V ; cells: Huh7 ; result: 4.9 µM
CC(C)(C)C(=O)SCCOP(=O)(OCCSC(=O)C(C)(C)C)OC[C@H]1CC[C@@H](n2cnc3c(N)ncnc32)O1 ; cells: HepG2.2.15 ; result: 0.08 µM
COc1ccc2[nH]cc(C3C=C4[C@@](C)(CC[C@@]5(C)[C@@H]6C[C@](C)(C(=O)O)CC[C@]6(C)CC[C@]45C)c4cc(O)c(O)cc43)c2c1 ; method: ELISA / antigen ; cells: HepG2 2.2.15 ; result: 64.4 µM
COc1ccc([C@H]2OC[C@H]3[C@@H]2CO[C@@H]3c2ccc(OC)c(O)c2)cc1O ; method: ELISA / antigen ; cells: HepG2.2.15 ; result: 837 µM
COC(=O)[C@]1(C)CC[C@]2(C)CC[C@]3(C)C4=CC=C5C(=CC(=O)C(OC)=C5C)[C@]4(C)CC[C@@]3(C)[C@@H]2C1 ; method: ELISA / antigen ; cells: HepG2 2.2.15 ; result: 22.1 µM
C[C@H](COc1cc(N)nc(N)n1)OCP(=O)(O)O ; method: PCR ; cells: HepAD38 ; result: 4.3 µM
COc1cc2c(c(C)c1OC)CC=C1[C@@]2(C)CC[C@@]2(C)[C@@H]3C[C@](C)(CO)CC[C@]3(C)CC[C@]12C ; method: ELISA / antigen ; cells: HepG2 2.2.15 ; result: 72.5 µM
Nc1nc(N)c2ncn(CC(CF)OCP(=O)(O)O)c2n1 ; cells: HB611 ; result: 100 µM

Repeating the first 2 entries:

compound	conditions	strain	method	cells	result
Nc1cc(OCCOCP(=O)(O)O)nc(=O)[nH]1			PCR	HEPAD79	>300 µM
Nc1nc(=O)n([C@@H]2C=C[C@H](CO)O2)cc1F				HepG2.2.15	<0.1 µM